Test system: P4 G4 (P4-WT RNA)
Test: CD spectra and CD melting of P4-WT with G4-specific ligands
Type: binding, SARS-CoV-2
Settings: P4-WT 1.0 μM, ligand 1.0 μM
Method: For CD spectra and CD melting experiments, the DNA or RNA oligonucleotide samples pre-heated at 95 °C for 10 min were slowly cooled to room temperature, and then were incubated at 4 °C for 24 h. The samples were detected by JASCO J-810 spectropolarimeter equipped with a temperature-controlled water bath. In CD melting experiments, versus temperatures were collected at a heating rate of 1 °C/min.

SMILES: NCCOc1cc(C(=O)Nc2cc(OCCN3CCCC3)c3ccccc3n2)nc(C(=O)Nc2cc(OCCN3CCCC3)c3ccccc3n2)c1 [PDP]
- CD peak position of P4 G4 in the presence of ligand: unchanged

SMILES: C[n+]1ccccc1-c1c2nc(c(-c3cccc[n+]3C)c3ccc([nH]3)c(-c3cccc[n+]3C)c3ccc([nH]3)c(-c3cccc[n+]3C)c3nc1C=C3)C=C2 [TMPyP2]
- CD peak position of P4 G4 in the presence of ligand: unchanged

SMILES: C[n+]1ccc(-c2c3nc(c(-c4cc[n+](C)cc4)c4ccc([nH]4)c(-c4cc[n+](C)cc4)c4nc(c(-c5cc[n+](C)cc5)c5ccc2[nH]5)C=C4)C=C3)cc1 [TMPyP4, 5,10,15,20-tetrakis-(N-methyl-4-pyridyl)porphine]
- CD peak position of P4 G4 in the presence of ligand: unchanged

— PMC9447362
